PubChem BioAssay AID504761 | Drosophila RNAi Screening Center – 2011
The deposit covers about 22,000 reagents; this is an unselected part of those with a known target gene and a result. Over the whole deposit, 116 (0.52%) were called active. 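Calls depend on retest data that are not deposited; infection was ranked per plate without normalising between plates; the unit of the infection score is not given.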 Further read-outs or replicates are left out here. Not stated in the record: the amount of reagent, the time to read-out.

Aim: 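Insect host genes that dengue virus relies on to spread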 (primary screen)
System: D.Mel-2 cells from Drosophila
Reagents: long dsRNA against Drosophila genes
Challenge: infection with dengue virus type 2; dose and infection time not stated
Read-out: 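Cells stained for dengue envelope protein and imaged; percent of infected cells per well on duplicate plates, ranked by infection, with stained nuclei counted for cell number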
Reading the numbers: infection score: higher = more virus-infected cells
Rule for the call: 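Very low infection ranking in both replicate wells (chance probability at most 0.065), then a retest showing infection dropped 1.5-fold or more at p below 0.05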
Calls: active = confirmed: knock-down lowers infection; inactive = not picked or not confirmed

infection score, replicate 1, by target gene and reagent
AGO3 (GeneID 3355150): DRSC21386 1.48 inactive
CG9498 (GeneID 33885): DRSC03235 6.11 inactive
Pdi (GeneID 39651): DRSC11250 1.6 inactive; DRSC26376 4.88 inactive
CG43347 (GeneID 31991): DRSC23007 0.98 inactive; DRSC23170 2.99 inactive; DRSC25782 1.88 inactive; DRSC29367 19 inactive
Ggamma30A (GeneID 45234): DRSC02715 0.42 inactive; DRSC03331 3.22 inactive
CatB (GeneID 34198): DRSC03194 10.9 inactive; DRSC24516 2.54 inactive
CG5888 (GeneID 34980): DRSC01929 15.3 inactive; DRSC28190 13.3 inactive
RAF2 (GeneID 39821): DRSC10443 4.84 inactive; DRSC10454 1.33 inactive; DRSC26436 1.75 inactive
CG16723 (GeneID 42781): DRSC15138 0.22 inactive; DRSC28144 16.2 inactive
CG15143 (GeneID 35062): DRSC02444 1.26 inactive
DIP-iota (GeneID 33925): DRSC02140 7.9 inactive; DRSC23965 4.85 inactive
Idi (GeneID 42526): DRSC15918 3.68 inactive
CG17267 (GeneID 42454): DRSC15207 1.33 inactive
CG1632 (GeneID 31763): DRSC17558 0.72 inactive; DRSC18110 5.75 inactive
GC2 (GeneID 41449): DRSC14476 5.93 inactive; DRSC27370 20 inactive
CG3635 (GeneID 35447): DRSC03729 2.94 inactive
Sdhaf3 (GeneID 42004): DRSC15020 13 inactive
CG4957 (GeneID 34374): DRSC02793 0.62 active; DRSC29454 17.3 inactive
Gprk2 (GeneID 49045): DRSC16682 6.54 inactive; DRSC23336 2.96 inactive
Map205 (GeneID 43765): DRSC16732 0.79 inactive; DRSC27322 8.22 inactive
CG16782 (GeneID 31313): DRSC18118 1.23 inactive
ssp5 (GeneID 41465): DRSC14955 3.95 inactive
CG11370 (GeneID 40486): DRSC11653 3.24 inactive; DRSC28361 8.66 inactive
